Measured values from several laboratories, pooled; numbers as filed in NIAID ChemDB.

All rows: enzyme or target tests

Percent inhibition refers to the dose given; in toxicity tests it is the harm to the cells. An empty or dashed field is not shown. Rows are shuffled and stem from different studies. ICn is the concentration giving n% inhibition.

smiles,strain or isolate,protein,read-out,dose,organism,value
c1ccc(-c2cncc(N3CCN(c4ccncc4)CC3)n2)cc1,,UL97 kinase,IC50,,Cytomegalovirus,<10 µM
N#Cc1ccc(C(=O)Nc2nnc(NCCCN3CCCC3=O)s2)cc1,,Polymerase,IC50,,Human cytomegalovirus,<25 µM
Nc1nc(N)c2nc(CN(c3ccccc3)c3ccccc3)cnc2n1,TYPE 2,Dihydrofolate reductase,IC50,,Cryptosporidium parvum,>10 µM
CSc1ccc(-c2cncc(N3CCN(c4ccccc4)CC3)n2)cc1,,UL97 kinase,inhibition,1 µM,Cytomegalovirus,<50%
COc1ccc(OC)c(Cc2sc3nc(N)nc(N)c3c2C)c1,TYPE 1,Dihydrofolate reductase,IC50,,Cryptosporidium parvum,8.4 µM
O=C(O)CCN1C(=O)C(=Cc2ccc(-c3cc(C(F)(F)F)cc(C(F)(F)F)c3)o2)SC1=S,,NS5 polymerase,IC50,,Bovine viral diarrhea virus,≤1 µM
O=C(Nc1nnc(NCc2ccc3c(c2)OCO3)s1)c1ccc(F)cc1F,,Polymerase,IC50,,Human cytomegalovirus,>25 µM
Nc1nc(N)c2nc(Cc3ccc(Cl)c(Cl)c3)c(Cc3ccc(Cl)c(Cl)c3)nc2n1,TYPE 1,Dihydrofolate reductase,IC50,,Cryptosporidium parvum,0.25 µM
CCN(C1=c2ccccc2=NC1)c1cncc(-c2ccc(C(N)=O)cc2)n1,,UL97 kinase,IC50,,Cytomegalovirus,<1 µM
O=C(O)c1ccc(N2C(=O)C(=Cc3ccc(-c4ccc(Cl)c(Cl)c4)o3)SC2=S)cc1,,NS5 polymerase,IC50,,Bovine viral diarrhea virus,≤1 µM
COc1cc(CCN2CCc3nc(N)nc(N)c3C2)cc(OC)c1OC,TYPE 1,Dihydrofolate reductase,IC50,,Cryptosporidium parvum,>10 µM
O=C(Nc1nnc(NCCCn2ccnc2)s1)c1ccc(I)cc1,,Polymerase,IC50,,Human cytomegalovirus,>25 µM
CCCCc1ccc(Cc2nc3nc(N)nc(N)c3nc2Cc2cccc(CCCC)c2)cc1,TYPE 2,Dihydrofolate reductase,IC50,,Cryptosporidium parvum,>10 µM
O=C(O)CCN1C(=O)C(=Cc2ccc(-c3sccc3Cl)o2)SC1=S,,NS5 polymerase,IC50,,Bovine viral diarrhea virus,≤1 µM
CC(C)c1cc(C(C)C)c(C(=O)Nc2nnc(NCCc3cnc[nH]3)s2)c(C(C)C)c1,,Polymerase,IC50,,Human cytomegalovirus,>25 µM
COc1ccc2cc(-c3cncc(N4CCN(c5ccc(OC)c(OC)c5)CC4)n3)ccc2c1,,UL97 kinase,IC50,,Cytomegalovirus,<10 µM
O=C(O)c1ccc(N2C(=O)C(=Cc3ccc(-c4ccc(C(F)(F)F)cn4)o3)SC2=S)cc1,,NS5 polymerase,IC50,,Bovine viral diarrhea virus,≤1 µM
COc1cc(N(C)Cc2cccc3nc(N)nc(N)c23)cc(OC)c1OC,TYPE 2,Dihydrofolate reductase,IC50,,Cryptosporidium parvum,>10 µM
O=C(/C=C/c1ccccc1Cl)Nc1nnc(NC2CC2)s1,,Polymerase,IC50,,Human cytomegalovirus,>25 µM
COc1ccccc1N1CCN(c2cncc(-c3ccccc3C)n2)CC1,,UL97 kinase,inhibition,10 µM,Cytomegalovirus,>15%
Nc1nc(N)c2nc(CC3CCCCC3)c(CC3CCCCC3)nc2n1,TYPE 2,Dihydrofolate reductase,IC50,,Cryptosporidium parvum,>10 µM

For reference, 3 entries again:

| smiles | strain or isolate | protein | read-out | dose | organism | value |
|---|---|---|---|---|---|---|
| CCCCc1ccc(Cc2nc3nc(N)nc(N)c3nc2Cc2cccc(CCCC)c2)cc1 | TYPE 2 | Dihydrofolate reductase | IC50 |  | Cryptosporidium parvum | >10 µM |
| COc1ccc(OC)c(Cc2sc3nc(N)nc(N)c3c2C)c1 | TYPE 1 | Dihydrofolate reductase | IC50 |  | Cryptosporidium parvum | 8.4 µM |
| O=C(O)c1ccc(N2C(=O)C(=Cc3ccc(-c4ccc(Cl)c(Cl)c4)o3)SC2=S)cc1 |  | NS5 polymerase | IC50 |  | Bovine viral diarrhea virus | ≤1 µM |